In patent US8501683B2 (priority 2008, dated 2013):

Legend:
[1] = tested on: hepatitis C virus genotype 1b Con1 replicon; conditions: ratio between CC50 and EC50, Huh 9-13 cells
[2] = tested on: Concanavalin-A-induced T-cell proliferation; test: Concanavalin-A-induced T-cell proliferation assay (immunosuppression); format: cell-based; conditions: IC50 compound / IC50 CsA; fold less immunosuppressive than CsA
Protocol: To determine whether the cycloundecadepsipepide compounds of the present invention have a non-immunosuppression activity, experiments were carried out that compared the dose-dependent inhibition of Concanavalin-A-induced T-cell proliferation (see Table 2).
The method of the assays were performed as described by Dayton et al. (1992. Mol. Pharmacol. 41. 671-676) and Mishell et al. (1980. Cell proliferation in selected methods in cellular immunology, V, XXIX, W.H. Freeman Co., San Francisco, Calif. 153-160).

SMILES | SI (selectivity index) [1] | IC50 ratio [2]
C/C=C/C[C@@H](C)[C@@H](O)[C@H]1C(=O)N[C@@H](CC)C(=O)N(C)[C@H](C)C(=O)N(C)[C@@H](C(C)C)C(=O)N[C@@H](CC(C)C)C(=O)N(C)[C@@H](CC(C)C)C(=O)NCC(=O)O[C@H](C(C)C)C(=O)N(C)[C@@H](CC(C)C)C(=O)N[C@@H](CC(C)C)C(=O)N(C)[C@@H](C(C)C)C(=O)N1C [(Ia), cyclo-(MeBmt-Abu-D-MeAla-MeVal-Leu-MeLeu-Gly-D-Hiv-MeLeu-Leu-MeVal)] (cyclo([Abu][dNMeA][NMeV]L[NMeL]G[dHiv][NMeL]L[NMeV][MeBmt])) | 1791.8 | 
C/C=C/C[C@@H](C)[C@@H](O)[C@H]1C(=O)N[C@@H](CC)C(=O)N(C)[C@H](C)C(=O)N(CC)[C@@H](C(C)C)C(=O)N[C@@H](CC(C)C)C(=O)N(C)[C@@H](CC(C)C)C(=O)N[C@@H](C)C(=O)O[C@H](C(C)C)C(=O)N(C)[C@@H](CC(C)C)C(=O)N[C@@H](CC(C)C)C(=O)N(C)[C@@H](C(C)C)C(=O)N1C [(Ib), cyclo-(MeBmt-Abu-D-MeAla-EtVal-Leu-MeLeu-Ala-D-Hiv-MeLeu-Leu-MeVal)] (cyclo(A[dHiv][NMeL]L[NMeV][MeBmt][Abu][dNMeA][NEtVal]L[NMeL])) | 1398 | 
C/C=C/C[C@@H](C)[C@@H](O)[C@H]1C(=O)N[C@@H](C(C)C)C(=O)N(C)[C@H](C)C(=O)N(C)[C@@H](C(C)C)C(=O)N[C@@H]([C@@H](C)CC)C(=O)N(C)[C@@H](CC(C)C)C(=O)NCC(=O)O[C@H](C(C)C)C(=O)N(C)[C@@H](CC(C)C)C(=O)N[C@@H](CC(C)C)C(=O)N(C)[C@@H](C(C)C)C(=O)N1C [(Ic), cyclo-(MeBmt-Val-D-MeAla-MeVal-Ile-MeLeu-Gly-D-Hiv-MeLeu-Leu-MeVal)] (cyclo(G[dHiv][NMeL]L[NMeV][MeBmt]V[dNMeA][NMeV]I[NMeL])) | 4024.1 | 164
C/C=C/C[C@@H](C)[C@@H](O)[C@H]1C(=O)N[C@@H](CC)C(=O)N(C)[C@H](C)C(=O)N(C)[C@@H](C(C)C)C(=O)N[C@@H](CC(C)C)C(=O)N(C)[C@@H](CC(C)C)C(=O)N[C@@H](C)C(=O)O[C@H](C(C)C)C(=O)N(C)[C@@H](CC(C)C)C(=O)N[C@@H](CC(C)C)C(=O)N(C)[C@@H](C(C)C)C(=O)N1C [(Id), cyclo-(MeBmt-Abu-D-MeAla-MeVal-Leu-MeLeu-Ala-D-Hiv-MeLeu-Leu-MeVal)] (cyclo(A[dHiv][NMeL]L[NMeV][MeBmt][Abu][dNMeA][NMeV]L[NMeL])) | 1745.9 | 
C/C=C/C[C@@H](C)[C@@H](O)[C@H]1C(=O)N[C@@H](CC)C(=O)N(C)[C@H](C)C(=O)N(C)[C@@H](C(C)C)C(=O)N[C@@H](C(C)C)C(=O)N(C)[C@@H](C)C(=O)N[C@@H](C)C(=O)O[C@H](C(C)C)C(=O)N(C)[C@@H](CC(C)C)C(=O)N[C@@H](CC(C)C)C(=O)N(C)[C@@H](C(C)C)C(=O)N1C [(Ie), cyclo-(MeBmt-Abu-D-MeAla-MeVal-Val-MeAla-Ala-D-Hiv-MeLeu-Leu-MeVal)] (cyclo(A[dHiv][NMeL]L[NMeV][MeBmt][Abu][dNMeA][NMeV]V[NMeA])) | 117.9 | 333
C/C=C/C[C@@H](C)[C@@H](O)[C@H]1C(=O)N[C@@H](C(C)C)C(=O)N(C)[C@H](C)C(=O)N(C)[C@@H](C(C)C)C(=O)N[C@@H](CC(C)C)C(=O)N(C)[C@@H](CC(C)C)C(=O)NCC(=O)O[C@H](C(C)C)C(=O)N(C)[C@@H](CC(C)C)C(=O)N[C@@H](CC(C)C)C(=O)N(C)[C@@H](C(C)C)C(=O)N1C [(If), cyclo-(MeBmt-Val-D-MeAla-MeVal-Leu-MeLeu-Gly-D-Hiv-MeLeu-Leu-MeVal)] (cyclo(G[dHiv][NMeL]L[NMeV][MeBmt]V[dNMeA][NMeV]L[NMeL])) | 3236.8 | 1288
C/C=C/C[C@@H](C)[C@@H](O)[C@H]1C(=O)N[C@@H](CC)C(=O)N(C)[C@H](C)C(=O)N(C)[C@@H](C(C)C)C(=O)N[C@@H]([C@@H](C)CC)C(=O)N(C)[C@@H](CC(C)C)C(=O)NCC(=O)O[C@H](C(C)C)C(=O)N(C)[C@@H](CC(C)C)C(=O)N[C@@H](CC(C)C)C(=O)N(C)[C@@H](C(C)C)C(=O)N1C [(Ig), cyclo-(MeBmt-Abu-D-MeAla-MeVal-Ile-MeLeu-Gly-D-Hiv-MeLeu-Leu-MeVal)] (cyclo([Abu][dNMeA][NMeV]I[NMeL]G[dHiv][NMeL]L[NMeV][MeBmt])) | 2045.2 | 
C/C=C/C[C@@H](C)[C@@H](O)[C@H]1C(=O)N[C@@H](C(C)C)C(=O)N(C)[C@H](C)C(=O)N(CC)[C@@H](C(C)C)C(=O)N[C@@H](CC(C)C)C(=O)N(C)[C@@H](CC(C)C)C(=O)N[C@@H](C)C(=O)O[C@H](C(C)C)C(=O)N(C)[C@@H](CC(C)C)C(=O)N[C@@H](CC(C)C)C(=O)N(C)[C@@H](C(C)C)C(=O)N1C [(Ih), cyclo-(MeBmt-Val-D-MeAla-EtVal-Leu-MeLeu-Ala-D-Hiv-MeLeu-Leu-MeVal)] (cyclo(A[dHiv][NMeL]L[NMeV][MeBmt]V[dNMeA][NEtVal]L[NMeL])) | 950 | 290
C/C=C/C[C@@H](C)[C@@H](O)[C@H]1C(=O)N[C@@H](CC)C(=O)N(C)[C@H](C)C(=O)N(C)[C@@H]([C@@H](C)CC)C(=O)N[C@@H](CC(C)C)C(=O)N(C)[C@@H](CC(C)C)C(=O)NCC(=O)O[C@H](C(C)C)C(=O)N(C)[C@@H](CC(C)C)C(=O)N[C@@H](CC(C)C)C(=O)N(C)[C@@H](C(C)C)C(=O)N1C [(Ii), cyclo-(MeBmt-Abu-D-MeAla-MeIle-Leu-MeLeu-Gly-D-Hiv-MeLeu-Leu-MeVal)] (cyclo([Abu][dNMeA][NMeI]L[NMeL]G[dHiv][NMeL]L[NMeV][MeBmt])) | 623.8 | 
C/C=C/C[C@@H](C)[C@@H](O)[C@H]1C(=O)N[C@@H](C(C)C)C(=O)N(C)[C@H](C)C(=O)N(C)[C@@H](C(C)C)C(=O)N[C@@H](C(C)C)C(=O)N(C)CC(=O)NCC(=O)O[C@H](C(C)C)C(=O)N(C)[C@@H](CC(C)C)C(=O)N[C@@H](CC(C)C)C(=O)N(C)[C@@H](C(C)C)C(=O)N1C [(Ik), cyclo-(MeBmt-Val-D-MeAla-MeVal-Val-Sar-Gly-D-Hiv-MeLeu-Leu-MeVal)] (cyclo(G[dHiv][NMeL]L[NMeV][MeBmt]V[dNMeA][NMeV]V[Sar])) | 132 | 
C/C=C/C[C@@H](C)[C@@H](O)[C@H]1C(=O)N[C@@H](CC)C(=O)N(C)[C@H](C)C(=O)N(CC)[C@@H](C(C)C)C(=O)N[C@@H](C(C)C)C(=O)N(C)[C@@H](CC(C)C)C(=O)N[C@@H](C)C(=O)N[C@H](C)C(=O)N(C)[C@@H](CC(C)C)C(=O)N(C)[C@@H](CC(C)C)C(=O)N(C)[C@@H](C(C)C)C(=O)N1C [Debio 025, [D-MeAla]^3-[EtVal]^4-CsA, reference compound] | 73.5 | 

Square brackets hold non-standard residues; d marks the D form. Peptide text beside a SMILES is read from it. MeBmt = C/C=C/C[C@@H](C)[C@@H](O)[C@H](NC)C(=O)O; NMeI = CC[C@H](C)[C@H](NC)C(=O)O; NEtVal = CCN[C@H](C(=O)O)C(C)C; NMeL = CN[C@@H](CC(C)C)C(=O)O; NMeV = CN[C@H](C(=O)O)C(C)C; dHiv = CC(C)[C@@H](O)C(=O)O; NMeA = CN[C@@H](C)C(=O)O; dNMeA = CN[C@H](C)C(=O)O; Abu = CC[C@H](N)C(=O)O; Sar = CNCC(=O)O
